Measured values from several laboratories, pooled; numbers as filed in NIAID ChemDB.

All rows: whole-cell or culture tests

Conditions beyond the fields shown may differ between rows. A number after MIC or MFC names an inhibition level or a share of isolates. Blank or dashed fields: not listed here. Zone: diameter of growth inhibition.

structure	organism	strain or isolate	read by	read-out	dose	result
Cc1ccc(N2NOC(=O)C2S(=O)(=O)Nc2nc(-c3ccc(F)cc3F)cs2)cc1	Aspergillus clavatus	MTCC323	broth dilution	MIC	-	200 µg/mL
COc1ccc(N2CCN(c3nc(Cl)nc(NC4CC4)n3)CC2)cc1	Aspergillus clavatus	MTCC 1323	agar	MIC	-	50 µg/mL
Cc1ccc(N2NOC(=O)C2S(=O)(=O)Nc2nc3ccc(F)cc3s2)cc1	Aspergillus clavatus	MTCC323	broth dilution	MIC	-	1000 µg/mL
CC(C)N1CCN(c2nc(Cl)nc(NC3CC3)n2)CC1	Aspergillus clavatus	MTCC 1323	agar	MIC	-	100 µg/mL
O=C(O)/C=C/c1ccc(O)c(O)c1	Aspergillus flavus	-	agar	MIC50	-	>1000 µg/mL
Clc1nc(NC2CC2)nc(N2CCN(C(c3ccccc3)c3ccccc3)CC2)n1	Aspergillus clavatus	MTCC 1323	agar	MIC	-	200 µg/mL
COc1cccc(N=C(C)c2cc(C(C)=Nc3cccc(OC)c3)c(O)cc2O)c1	Aspergillus clavatus	MTCC 1323	broth dilution	MIC	-	250 µg/mL
N#Cc1c[nH]cc1-c1cccc2c1OC(F)(F)O2	Aspergillus tubingensis	-	agar diffusion	zone	10 µg/mL	16.4 mm
CC(=Nc1cccc(Br)c1)c1cc(C(C)=Nc2cccc(Br)c2)c(O)cc1O	Aspergillus clavatus	MTCC 1323	broth dilution	MIC	-	500 µg/mL
C[C@H]1[C@H](O)[C@@H](C)/C=C/C=C/C=C/C=C/C=C/C=C/C=C/[C@H](O[C@@H]2O[C@H](C)[C@@H](O)[C@H](N)[C@@H]2O)C[C@@H]2O[C@](O)(C[C@@H](O)C[C@@H](O)CC[C@H](O)[C@@H](O)C[C@@H](O)CC(=O)O[C@H]1C)C[C@H](O)[C@H]2C(=O)O	Aspergillus fumigatus	60 isolates	-	MIC50	-	0.5 µg/mL
Brc1cc(Br)c2ncnc(NCCNc3nc(NC4CC4)nc(N4CCN(Cc5ccccc5)CC4)n3)c2c1	Aspergillus clavatus	MTCC 1323	agar	MIC	-	100 µg/mL
COc1ccccc1C=O	Aspergillus terreus	UAB680	agar	MIC	-	2500 µM
[Al]#[P]	Aspergillus ochraceus	-	agar diffusion	zone	1 mg/mL	53.9 mm
COc1cccc(C=O)c1OC	Aspergillus terreus	UAB680	agar	MIC	-	2000 µM
CCCCC1(CCCC)OC(=O)C2CCCCC21	Aspergillus glaucus	AM211	-	MIC	-	238.6 µg/mL
CN1CCN(c2nc(Cl)nc(NC3CC3)n2)CC1	Aspergillus clavatus	MTCC 1323	agar	MIC	-	200 µg/mL
COc1ccc(Cn2nc(C3CC3)cc2NC(=O)c2cccc(Br)c2)cc1	Aspergillus ochraceus	-	-	MIC	-	44 µg/mL
Cc1ccc(N2NOC(=O)C2S(=O)(=O)Nc2ccc(-n3c(-c4c(Cl)cccc4[N+](=O)[O-])nc4ccccc4c3=O)cc2)cc1	Aspergillus clavatus	MTCC323	broth dilution	MIC	-	250 µg/mL
O=C(O)c1cc(O)c(O)c(O)c1	Aspergillus fumigatus	-	agar	MIC100	-	>1000 µg/mL
Cc1ccc(N2NOC(=O)C2S(=O)(=O)Nc2ccc(-n3c(-c4cccc([N+](=O)[O-])c4)nc4ccccc4c3=O)cc2)cc1	Aspergillus clavatus	MTCC323	broth dilution	MIC	-	250 µg/mL
C=CCc1ccc(O)c(OC)c1	Aspergillus fumigatus	-	agar	MIC100	-	423 µg/mL
COc1ccc(Cn2nc(C3CC3)cc2NC(=O)c2cc([N+](=O)[O-])cc([N+](=O)[O-])c2)cc1	Aspergillus ochraceus	-	-	MIC	-	54 µg/mL
Cc1ccc(C(C)C)cc1O	Aspergillus fumigatus	-	agar	MIC100	-	131 µg/mL
Cc1ccc(N2NOC(=O)C2S(=O)(=O)Nc2nc(-c3ccc(Cl)cc3)cs2)cc1	Aspergillus clavatus	MTCC323	agar diffusion	zone	250 µg/mL	20 mm
C[C@@H](c1ncncc1F)[C@](O)(Cn1cncn1)c1ccc(F)cc1F	Aspergillus fumigatus	NFI 4001	-	MFC	-	2 µg/mL
Cc1ccc(N2NOC(=O)C2S(=O)(=O)Nc2nc(-c3c(F)cc(Cl)cc3Cl)cs2)cc1	Aspergillus clavatus	MTCC323	agar diffusion	zone	250 µg/mL	17 mm
COc1cccc(C=O)c1O	Aspergillus terreus	UAB680	agar	MIC	-	500 µM
O=C1OCC2CCCCC12	Aspergillus glaucus	AM211	-	MIC	-	142.9 µg/mL
Oc1cc(O)cc(O)c1	Aspergillus fumigatus	-	agar	MIC50	-	>1000 µg/mL
CCCCC1(CCCC)OC(=O)C2CC=CCC21	Aspergillus glaucus	AM211	-	MIC	-	>350 µg/mL
CC(C)c1cc2c(c(O)c1O)[C@@]1(C(=O)O)CCCC(C)(C)C1CC2	Aspergillus tubingensis	-	agar diffusion	zone	400 µg/mL	5.2 mm
O=C1NC2C=CC1C2	Aspergillus glaucus	AM211	-	MIC	-	262.6 µg/mL
Cc1ccc(N2NOC(=O)C2S(=O)(=O)Nc2nc3ccc(C)cc3s2)cc1	Aspergillus clavatus	MTCC323	agar diffusion	zone	250 µg/mL	21 mm
Clc1nc(NC2CC2)nc(N2CCC(Cc3ccccc3)CC2)n1	Aspergillus clavatus	MTCC 1323	agar	MIC	-	200 µg/mL
CN(C/C=C/C#CC(C)(C)C)Cc1cccc2ccccc12	Aspergillus fumigatus	NFI 4001	-	MFC	-	4 µg/mL
COc1ccc(Cn2nc(C3CC3)cc2NC(=O)c2ccccc2)cc1	Aspergillus ochraceus	-	-	MIC	-	32 µg/mL
CCCCN1C(=O)C2C=CC1C2	Aspergillus glaucus	AM211	-	MIC	-	226.9 µg/mL
COc1cc(C(=O)O)cc(OC)c1O	Aspergillus flavus	-	agar	MIC100	-	>1000 µg/mL